These are literature values, as cited in article PMC4483627 (Marine Drugs, 2015).

Usually koff stands for the rate constant with which the complex falls apart. The term IC50 denotes the concentration that gives 50% inhibition.

The match of structure and compound is tentative.

In one data set the test system is nAChR. Conditions: recovery rate, compared with Mr1.7 on α3β2; cited from earlier work.
Another data set addresses rat nAChR α4β2 (Rattus norvegicus, UniProt P09483+P12390). Conditions: read-out: IC50 α4β2; cited from earlier work.

Take `CC(C)C[C@@H]1NC(=O)[C@H](CC(N)=O)NC(=O)[C@H](CO)NC(=O)[C@H](Cc2c[nH]cn2)NC(=O)[C@H](CCC(=O)O)NC(=O)[C@H](CC(C)C)NC(=O)[C@H](Cc2c[nH]cn2)NC(=O)[C@@H]2CSSC[C@H](NC(=O)CN)C(=O)N[C@@H](CSSC[C@@H](C(N)=O)NC1=O)C(=O)N[C@@H](CO)C(=O)N[C@@H](CC(N)=O)C(=O)N1CCC[C@H]1C(=O)N[C@@H](C(C)C)C(=O)N2`: the koff with nAChR is 0.00183 s⁻¹. As for `CC(C)C[C@@H]1NC(=O)[C@H](C(C)C)NC(=O)[C@H](C)NC(=O)[C@@H]2CSSC[C@H](NC(=O)CN)C(=O)N[C@@H](CSSC[C@@H](C(N)=O)NC(=O)[C@H](Cc3ccc(O)cc3)NC1=O)C(=O)N[C@@H](CO)C(=O)N[C@@H]([C@@H](C)O)C(=O)N1CCC[C@H]1C(=O)N1CCC[C@H]1C(=O)N2`, the off-rate (koff) in the data set with nAChR is 0.0109 s⁻¹. `CC[C@H](C)[C@H](N)C(=O)N[C@@H](CCCNC(=N)N)C(=O)N[C@@H](CC(=O)O)C(=O)N[C@@H](CC(C(=O)O)C(=O)O)C(=O)N[C@H]1CSSC[C@@H]2NC(=O)[C@H](C)NC(=O)[C@@H]3CCCN3C(=O)[C@H](CC(N)=O)NC(=O)[C@H](CO)NC(=O)[C@H](CSSC[C@@H](C(=O)O)NC(=O)[C@H](C(C)C)NC(=O)[C@H](Cc3c[nH]cn3)NC(=O)[C@@H]3C[C@@H](O)CN3C(=O)[C@H](CC(N)=O)NC(=O)[C@H](CC(N)=O)NC(=O)[C@H](C(C)C)NC(=O)[C@H](CCCNC(=N)N)NC2=O)NC1=O`: the half-inhibitory concentration (IC50) on rat nAChR α4β2 was 152 nM.
